B1: mAb10920 (antibody)
heavy: QVQLVESGGGVVQPGRSLRLSCAASGFTFSYYGMHWVRQAPGKGLEWVAVIWYDGSNKFYADSVKGRFTISRDNSKNTLYLQMNSLRAEDTAVYYCAAARPGYYYGMDVWGQGTTVTVSSASTKGPSVFPLAPSSKSTSGGTAALGCLVKDYFPEPVTVSWNSGALTSGVHTFPAVLQSSGLYSLSSVVTVPSSSLGTQTYICNVNHKPSNTKVDKKV[human IgG1 Fc left out]
light: DIQMTQSPSSLSASVGDRVTITCRASQGISNYLAWFQQKPGKAPNSLIYAASSLQRGVPSKFSGSGSGTDFTLTISSLQPEDFATYYCQQYNSYPRTFGQGTKVEIKRTVAAPSVFIFPPSDEQLKSGTASVVCLLNNFYPREAKVQWKVDNALQSGNSQESVTEQDSKDSTYSLSSTLTLSKADYEKHKVYACEVTHQGLSSPVTKSFNRGEC
B2: mAb10915 (antibody)
heavy: EVQLVESGGGLVQPGGSLRLSCAASGFTVSSNYMNWVRQAPGKGLEWVSVIYSGGSTFYADSVKGRFTISRHNSKNTLYLQMNSLRPEDTAVYYCARDLGGYFDYWGQGTLVTVSSASTKGPSVFPLAPSSKSTSGGTAALGCLVKDYFPEPVTVSWNSGALTSGVHTFPAVLQSSGLYSLSSVVTVPSSSLGTQTYICNVNHKPSNTKVDKKV[human IgG1 Fc left out]
light: [about 100 residues left out][about 120 residues left out]
B3: mAb10965 (antibody)
heavy: EVQLVESGGGLIQPGGSLRLSCAASVFTVSYNYMSWVRQAPGKGLEWVSVIYSGGSTYYADSVKGRFTISRDNSKNTLYLQMNSLRAEDTAVYYCARALPGWGGSFEYFDYWGQGTLVTVSSASTKGPSVFPLAPSSKSTSGGTAALGCLVKDYFPEPVTVSWNSGALTSGVHTFPAVLQSSGLYSLSSVVTVPSSSLGTQTYICNVNHKPSNTKVDKKV[human IgG1 Fc left out]
light: [about 100 residues left out][about 100 residues left out]
B4: mAb11010 (antibody)
heavy: QVQLVESGGGVVQPGRSLRLSCAASGFTFSSYGMHWVRQAPGKGLEWVAVISYDGSYKYYADSVKGRFTISRDNSKNTLYLQMNSLRAEDTAVYYCAIDGGTVTTIFDYWGQGTLVTVSSASTKGPSVFPLAPSSKSTSGGTAALGCLVKDYFPEPVTVSWNSGALTSGVHTFPAVLQSSGLYSLSSVVTVPSSSLGTQTYICNVNHKPSNTKVDKKV[human IgG1 Fc left out]
light: [about 100 residues left out][about 120 residues left out]
B5: mAb10955 (antibody)
heavy: EVQLVESGGGLVQPGGSLRVSCAASGFTVSRNYMSWVRQAPGKGLEWVSVIYSGGSTFYADSVKGRFTISRDNSKNTLYLQMNSLRAEDTAIYYCARYIPRFDPWGQGTLVTVSSASTKGPSVFPLAPSSKSTSGGTAALGCLVKDYFPEPVTVSWNSGALTSGVHTFPAVLQSSGLYSLSSVVTVPSSSLGTQTYICNVNHKPSNTKVDKKV[human IgG1 Fc left out]
light: DIQMTQSPSSLSASVGDRVTITCQASQDISNYLNWFQQKPGRAPKLLIYDASNLETGVPSRFSGSGSGTDFTFTISSLQPEDIATYYCQQYDNLPITFGQGTRLEIKRTVAAPSVFIFPPSDEQLKSGTASVVCLLNNFYPREAKVQWKVDNALQSGNSQESVTEQDSKDSTYSLSSTLTLSKADYEKHKVYACEVTHQGLSSPVTKSFNRGEC
B6: mAb10921 (antibody)
heavy: EVQLVESGGGLVQPGGSLRLSCAASGITVSSNYMSWVRQAPGKGLEWVSVIYSGGSTFYADSVKGRFTISRHNSKNTLYLQMNSLRAEDTAVYYCARERNFDAFDIWGQGTMVTVSSASTKGPSVFPLAPSSKSTSGGTAALGCLVKDYFPEPVTVSWNSGALTSGVHTFPAVLQSSGLYSLSSVVTVPSSSLGTQTYICNVNHKPSNTKVDKKV[human IgG1 Fc left out]
light: DIQMTQSPSSVSASVGDRVTITCRASQGISSWLAWYQQKPGKAPKLLIYAASSLQSGVPSRFSGSGSGTDFTLTISSLQPEDFATYYCQQANSFPLFTFGPGTKVDIKRTVAAPSVFIFPPSDEQLKSGTASVVCLLNNFYPREAKVQWKVDNALQSGNSQESVTEQDSKDSTYSLSSTLTLSKADYEKHKVYACEVTHQGLSSPVTKSFNRGEC

By Kd is commonly meant a measure of binding affinity in units of concentration. The low end stands for tighter binding, the high end for weaker binding. As a reminder, the t½ is the time needed for the level to fall by half in the phase considered.

The assay has as its target SARS-COV-2 RBD-MMH (SARS-CoV-2). Briefly: SPR. Particulars: remark: other sources report otherwise.
The molecule B1 came in with a dissociation constant Kd of 35.4 nM and a t½ of 0.5 min.

As to B2, the Kd was 3.59 nM and the t½ stood at 36.3 min.

As to B3, the Kd came out at 22.8 nM and the t½ was 4.2 min.

For the molecule B4, the Kd turned out to be 4.42 nM and the t½ was determined as 7.8 min.

With B5, the dissociation constant (Kd) came out at 19.5 nM and the t½ came to 4.3 min.

Consider B6, for which the dissociation constant Kd was found to be 5.24 nM and the t½ amounted to 23.1 min.
